Drawing on ChEMBL document CHEMBL1157539, “Thousands of chemical starting points for antimalarial lead identification” (Nature, 2010), this text covers XC50 for two molecules.

The structures appear in SMILES notation. This is a selection: effects in other tests are not listed, and their absence says nothing.

The test system of the assay is Plasmodium falciparum. The experiment in a line: GSK_TCMDC: Inhibition of Plasmodium falciparum 3D7 in whole erythrocytes, using parasite LDH activity as an index of growth. Type of assay: functional, organism-based.

`CC(C)(C)c1cc2cc(N(C(=O)c3ccc(C(F)(F)F)cc3)C3CCN(Cc4ccccc4)CC3)ccc2[nH]1` gave an XC50 of 1190 nM.
The molecule `Cn1c(=O)n(C2CCN(CCCC(c3ccc(F)cc3)c3ccc(F)cc3)CC2)c2ccccc21` gave an XC50 of 836 nM.
